One data set deals with HeLa cells. As to the kind of experiment: Cell cytotoxicity studies of cofactor analogs (CellTiter Glo). As to conditions: doses up to 2 mM, 12 h. In general terms: In ATP-based viability assays light output follows the ATP content of the culture.
A further data set relates to HEK293 cells. Described as above. As to conditions: doses up to 2 mM, 12 h.

SMILES strings stand for the structures.

Regarding `CCOC(=O)CF`, the cell cytotoxicity entry in the data set on HeLa cells and in the data set on HEK293 cells was “minimal toxicity” throughout.

For the origin of these results see US20230138393A1, “LINKING AMINO ACID SEQUENCES, MANUFACTURING METHOD THEREOF, AND USE THEREOF” (priority 2020, published 2023).
